# Potato spindle tuber viroid, loop 6: variant abundance in plants

Reference: Wu et al. 2024, doi:10.1371/journal.ppat.1012142.

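A pool of all variants was put on leaves of three Nicotiana benthamiana plants. Samples came from the inoculated region at 5 days, the leaf margin at 10 and upper systemic leaves at 12.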

The pool varies loop 6 of the PSTVd intermediate strain in the pattern UNNNCGNNNG; wild type is UGACCGCGAG (upper and lower strand joined, each 5' to 3', the first 5 letters being the upper strand, closing pairs included).

Numbers give reads per thousand; 0 = not seen among the reads, higher = more abundant.
Each value is the mean of three plants.
"Pool" is the share in the plasmid pool used as inoculum, on the same scale.
The inoculated region was read from the minus strand, the other sites from the plus strand.
IR is the inoculated region, LM the leaf margin, Sys the systemic leaves.
Samples held 36,220 to 57,551 reads, so the smallest values rest on one or two reads.
For reference, wild type rose from 20.7 per thousand in the pool to 195, 198, 203 (inoculated region), 629, 591, 734 (leaf margin) and 942, 870, 868 (systemic leaves).
Sequences that differ at fixed positions probably stem from PCR or sequencing errors, and defective variants can be carried along by functional ones.

sequence	pool	IR	LM	Sys
UCCCCGUGGG	0.248	0.0538	0.00920	0
UACUCGAGUG	0.275	0.106	0.00920	0
UGUUCGGUCG	0.366	0.0422	0.00773	0
UAGUCGCUCG	0.327	0.100	0.00773	0
UAAUCGGAGA	0.0131	0	0	0
UUGCCGUGGG	0.196	0.0827	0.00773	0
CGACCGUUGG	0.0131	0.0119	0.00773	0
UAAGCGGGAG	0.301	0.683	0.100	0.0265
UUCUCGGUCG	0.288	0.0596	0	0
UGACCGUUAG	0.863	0.432	0.462	0.243
UUGCCGCAAG	0.118	0.125	0	0
UGUGCGACUG	0.261	0.108	0.0169	0
UGGUCGGAUG	0.170	0.0712	0.0276	0.00599
UUCCCGGGCG	0.170	0.0942	0.0169	0
UUCACGCGGG	0.261	0.0534	0.0155	0
UGCACAACGG	0.0131	0	0	0
UGGCCGUUUG	0.405	0.168	0.0184	0.00673
UUGCCGGGUG	0.235	0.0714	0	0
UUCGCGGAAG	0.118	0.0712	0.00773	0
UAAUCUAUGG	0.0131	0	0	0
UCGUCGUCGG	0.235	0.0591	0	0
UGGUCGAGGG	0.222	0.0708	0	0
UCGUCGGUGG	0.275	0.0710	0	0
UAGGCACGGG	0.0131	0	0	0
UAGCCGUCUG	0.275	0.0838	0.0260	0
UCCACGGCGG	0.157	0.0538	0.0155	0
UGAUCGUGGG	0.248	0.0824	0	0.00599
UCUGCGUCAG	0.275	0.0842	0.00773	0
UCUACGACGG	0.288	0.0775	0.0184	0
UAUACGGCGG	0.209	0.149	0	0
UCCGCGGUCG	0.222	0.114	0	0.00684
UAGUCGUCCG	0.248	0.0657	0	0
UGGCCGAUAG	0.235	0.168	0.0571	0.00684
UUAUCGGACG	0.275	0.644	0.0663	0.00673
UGAGCGCGAG	0.327	0.155	0.186	0.225
UACACGCGAG	0.144	0.0588	0.0644	0.00684
UUACCGUGAG	0.248	0.617	0.0662	0

Extract of 4 entries:

| sequence | pool | IR | LM | Sys |
|---|---|---|---|---|
| UCCGCGGUCG | 0.222 | 0.114 | 0 | 0.00684 |
| UGCACAACGG | 0.0131 | 0 | 0 | 0 |
| UCGUCGGUGG | 0.275 | 0.0710 | 0 | 0 |
| UUGCCGUGGG | 0.196 | 0.0827 | 0.00773 | 0 |